Assay results reported in publication PMC9518868 (PLoS ONE, 2022).

Chains of the proteins cited; added tags and fusions are not shown.
UniProt P23975, whole entry: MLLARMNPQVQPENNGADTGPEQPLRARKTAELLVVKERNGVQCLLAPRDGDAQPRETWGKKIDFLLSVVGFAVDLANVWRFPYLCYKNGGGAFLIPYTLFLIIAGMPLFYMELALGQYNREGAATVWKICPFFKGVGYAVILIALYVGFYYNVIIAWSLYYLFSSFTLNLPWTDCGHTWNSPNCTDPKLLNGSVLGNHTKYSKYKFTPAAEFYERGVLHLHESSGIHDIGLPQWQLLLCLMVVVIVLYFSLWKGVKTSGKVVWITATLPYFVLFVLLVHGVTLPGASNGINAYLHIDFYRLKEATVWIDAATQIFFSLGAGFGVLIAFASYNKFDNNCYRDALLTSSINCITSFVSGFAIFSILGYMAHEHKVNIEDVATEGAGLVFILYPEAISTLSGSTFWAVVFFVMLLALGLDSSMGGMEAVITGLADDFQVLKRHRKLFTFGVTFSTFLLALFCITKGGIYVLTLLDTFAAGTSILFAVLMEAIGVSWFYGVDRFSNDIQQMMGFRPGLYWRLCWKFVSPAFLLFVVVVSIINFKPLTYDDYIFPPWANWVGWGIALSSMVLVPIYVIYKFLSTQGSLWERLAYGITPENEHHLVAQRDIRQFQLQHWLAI
UniProt P23975, whole entry Y467F: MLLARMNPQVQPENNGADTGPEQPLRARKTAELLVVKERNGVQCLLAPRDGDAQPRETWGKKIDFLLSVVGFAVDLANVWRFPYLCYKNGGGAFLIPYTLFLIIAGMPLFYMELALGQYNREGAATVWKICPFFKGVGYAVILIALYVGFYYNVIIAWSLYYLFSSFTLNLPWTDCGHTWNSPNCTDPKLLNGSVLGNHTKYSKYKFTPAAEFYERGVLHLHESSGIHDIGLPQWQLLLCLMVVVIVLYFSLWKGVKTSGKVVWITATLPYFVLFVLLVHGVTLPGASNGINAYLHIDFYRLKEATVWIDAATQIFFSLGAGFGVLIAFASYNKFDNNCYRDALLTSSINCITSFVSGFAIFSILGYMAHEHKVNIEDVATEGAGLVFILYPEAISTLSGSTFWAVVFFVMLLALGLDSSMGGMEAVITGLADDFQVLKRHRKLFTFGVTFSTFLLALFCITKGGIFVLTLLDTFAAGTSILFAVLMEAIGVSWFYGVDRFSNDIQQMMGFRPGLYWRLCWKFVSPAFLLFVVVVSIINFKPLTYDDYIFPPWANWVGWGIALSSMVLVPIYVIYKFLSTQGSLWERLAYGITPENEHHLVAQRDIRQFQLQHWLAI
UniProt P23975, whole entry Y467H: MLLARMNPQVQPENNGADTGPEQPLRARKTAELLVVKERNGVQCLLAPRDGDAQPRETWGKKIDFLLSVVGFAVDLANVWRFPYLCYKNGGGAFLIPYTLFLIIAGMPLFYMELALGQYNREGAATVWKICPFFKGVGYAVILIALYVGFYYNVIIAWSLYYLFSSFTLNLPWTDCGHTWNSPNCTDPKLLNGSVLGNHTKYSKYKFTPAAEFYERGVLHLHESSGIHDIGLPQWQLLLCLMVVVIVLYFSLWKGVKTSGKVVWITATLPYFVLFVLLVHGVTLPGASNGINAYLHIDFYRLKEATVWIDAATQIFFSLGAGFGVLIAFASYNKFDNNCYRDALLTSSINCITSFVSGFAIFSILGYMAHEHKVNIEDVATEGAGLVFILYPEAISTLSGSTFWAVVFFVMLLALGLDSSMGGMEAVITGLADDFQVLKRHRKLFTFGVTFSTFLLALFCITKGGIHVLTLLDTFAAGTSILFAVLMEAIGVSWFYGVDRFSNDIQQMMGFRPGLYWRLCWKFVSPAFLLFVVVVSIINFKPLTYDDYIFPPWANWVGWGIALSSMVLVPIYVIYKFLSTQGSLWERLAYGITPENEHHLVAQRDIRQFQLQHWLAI

What was measured:
WT hNET = target: T1, WT hNET (Homo sapiens, UniProt P23975); assay: [^3H]WIN 35,428 binding assay, PC12 cells expressing WT hNET
T1 construct: expressed in transfected cells; host or cells: PC12 cells, transient transfection of pcDNA3.1+ plasmid with Lipofectamine 2000
Method: (§1) [^3H]WIN 35,428 and [[…] represent binding sites on hNET with different kinetic profiles. To determine whether mutation of Tyr467 alters hNET binding sites, we determined the kinetic parameters (Bmax and Kd) of [^3H]WIN 35,428 or [[…] in PC12 cells transfected with WT hNET or mutants. Cell suspensions were prepared as described above. Following cell suspension preparation, the final cell pellets were resuspended in 1 mL of assay buffer (15 mM Na2HPO4, 30 mM NaH2PO4, 122 mM NaCl, 5 mM KCl, 1 mM MgSO4, 10 mM glucose, 1 mM CaCl, and 10 nM EDTA). […] The reaction was terminated by immediate filtration through Whatman GF/B glass filters (presoaked for 2 h with 1 mM pyrocatechol) followed by three washes with ice-cold assay buffer using a Brandel cell harvester (model M-48; Brandel Inc., Gaithersburg, MD) and radioactivity was determined as described above. […]
(§2) Results are presented as mean ± SEM, and n represents the number of independent experiments for each experiment group. Kinetic parameters (Vmax, Km, Bmax, and Kd) were determined from saturation curves by nonlinear regression analysis using a one-site model with variable slope. IC50 values for substrate and inhibitors for [^3H]DA or [^3H]NE uptake were determined from inhibition curves by nonlinear regression analysis using a one-site model with variable slope. […]

hNET Y467F = target: T2, hNET Y467F (Homo sapiens, UniProt P23975, Y467F); assay: [^3H]WIN 35,428 binding assay, PC12 cells expressing Y467F hNET
T2 construct: expressed in transfected cells; host or cells: PC12 cells, transient transfection of pcDNA3.1+ plasmid with Lipofectamine 2000
Method: as §1, §2

hNET Y467H = target: T3, hNET Y467H (Homo sapiens, UniProt P23975, Y467H); assay: [^3H]WIN 35,428 binding assay, PC12 cells expressing Y467H hNET
T3 construct: expressed in transfected cells; host or cells: PC12 cells, transient transfection of pcDNA3.1+ plasmid with Lipofectamine 2000
Method: as §1, §2

2beta-carbomethoxy-3-beta-(4-fluorophenyl)tropane [[^3H]WIN 35,428]
Bmax of [^3H]WIN 35,428 binding (WT hNET): 0.267 ± 0.063 pmol/10^6
Kd (WT hNET): 24.7 ± 3.1 nM
Bmax of [^3H]WIN 35,428 binding (hNET Y467F): 0.322 ± 0.078 pmol/10^6
Bmax of [^3H]WIN 35,428 binding (hNET Y467H): 0.209 ± 0.034 pmol/10^6
Kd (hNET Y467H): 31 ± 3.1 nM
